In US20240059757A1 (VIR BIOTECHNOLOGY, published 2024):

Legend:
[1] = molecular target: T1, BGR2008 spike protein RBD (BGR2008); experiment: BLI
T1 construct: domain: RBD

SC2018 spike RBD [2] = molecular target: T2, SC2018 spike RBD (SC2018); experiment: BLI
T2 construct: domain: RBD

SC2018 spike RBD [3] = molecular target: T2, SC2018 spike RBD; experiment: BLI; *no optimal fitting
SARS-CoV-2 B.1.1.222 RBD = molecular target: T3, SARS-CoV-2 B.1.1.222 RBD (SARS-CoV-2 B.1.1.222); experiment: ELISA
T3 construct: domain: RBD

| Binder | Kd [1] [nM] | Kd (SC2018 spike RBD [2]) [nM] | Kd (SC2018 spike RBD [3]) [nM] | IC50 (SARS-CoV-2 B.1.1.222 RBD) |
| --- | --- | --- | --- | --- |
| S2X259 variant antibody, VH SEQ ID NO 408 / VL SEQ ID NO 442 (antibody, V domains shown) VH: QVQLVQSGAEVKKPGSSVKVSCKASGGIFNTYTISWVRQAPGQGLEWMGRIILMSGMANYAQKIQGRVTITADKSTSTAYMELTSLRSDDTAVYYCARGFNGNYYGWGDDDAFDISGQGTLVTVYS VL: QTVLTQPPSVSGAPGQRVTISCTGSNSNIGAGYDVHWYQQLPGTAPKLLISGNSNRPSGVPDRFSGSKSGTSASLAITGLQAEDEADYYCQSYDSSLSGPNWVFGGGTKLTVL | 0.522 | 5.55 |  |  |
| S2X259 variant antibody, VH SEQ ID NO 408 / VL SEQ ID NO 443 (antibody, V domains shown) VH: QVQLVQSGAEVKKPGSSVKVSCKASGGIFNTYTISWVRQAPGQGLEWMGRIILMSGMANYAQKIQGRVTITADKSTSTAYMELTSLRSDDTAVYYCARGFNGNYYGWGDDDAFDISGQGTLVTVYS VL: QTVLTQPPSVSGAPGQRVTISCTGSNSNIGAGYDVHWYQQLPGTAPKLLIAGNSNRPSGVPDRFSGSKSGTSASLAITGLQAEDEADYYCQSYDSSLSGPNWVFGGGTKLTVL | 0.735 | 7.94 |  |  |
| S2X259 variant antibody, VH SEQ ID NO 408 / VL SEQ ID NO 444 (antibody, V domains shown) VH: QVQLVQSGAEVKKPGSSVKVSCKASGGIFNTYTISWVRQAPGQGLEWMGRIILMSGMANYAQKIQGRVTITADKSTSTAYMELTSLRSDDTAVYYCARGFNGNYYGWGDDDAFDISGQGTLVTVYS VL: QTVLTQPPSVSGAPGQRVTISCTGSNSNIGAGYDVHWYQQLPGTAPKLLIYGNSNRPSGVPDRFSGSKSGTSASLAITGLQAEDEADYYCQSYDSSLSGPNWVFGGGTKLTVL | 1.96 |  | 6 |  |
| S2X259 variant antibody, VH SEQ ID NO 408 / VL SEQ ID NO 445 (antibody, V domains shown) VH: QVQLVQSGAEVKKPGSSVKVSCKASGGIFNTYTISWVRQAPGQGLEWMGRIILMSGMANYAQKIQGRVTITADKSTSTAYMELTSLRSDDTAVYYCARGFNGNYYGWGDDDAFDISGQGTLVTVYS VL: QTVLTQPPSVSGAPGQRVTISCTGSNSNIGAGYDVHWYQQLPGTAPKLLIVGNSNRPSGVPDRFSGSKSGTSASLAITGLQAEDEADYYCQSYDSSLSGPNWVFGGGTKLTVL | 0.859 | 8.36 |  |  |
| S2X259 variant antibody, VH SEQ ID NO 446 / VL SEQ ID NO 412 (antibody, V domains shown) VH: QVQLVQSGAEVKKPGSSVKVSCKASGGIFNTYTISWVRQAPGQGLEWMGRIILISGIANYAQKIQGRVTITADKSTSTAYMELTSLRSDDTAVYYCARGFNGNYYGWGDDDAFDISGQGTLVTVYS VL: QTVLTQPPSVSGAPGQRVTISCTGSNSNIGAGYDVHWYQQLPGTAPKLLICGNSNRPSGVPDRFSGSKSGTSASLAITGLQAEDEADYYCQSYDSSLSGPNWVFGGGTKLTVL | 4.95 |  | 1.2 |  |
| S2X259 variant antibody, VH SEQ ID NO 458 / VL SEQ ID NO 445 (antibody, V domains shown) VH: QVQLVQSGAEVKKPGSSVKVSCKASGGIFNTYTISWVRQAPGQGLEWMGRIILMSGMANYAQKIQGRVTITADKSTSTAYMELTSLRSDDTAVYYCARGFNGNYYGWGDDDAFDIWGQGTLVTVSS VL: QTVLTQPPSVSGAPGQRVTISCTGSNSNIGAGYDVHWYQQLPGTAPKLLIVGNSNRPSGVPDRFSGSKSGTSASLAITGLQAEDEADYYCQSYDSSLSGPNWVFGGGTKLTVL |  |  |  | ≥ 0.05 µg/mL and ≤ 0.1 µg/mL |
| S2X259 variant antibody, VH SEQ ID NO 459 / VL SEQ ID NO 445 (antibody, V domains shown) VH: QVQLVQSGAEVKKPGSSVKVSCKASGGIFNTYTISWVRQAPGQGLEWMGRIILMSGKANYAQKIQGRVTITADKSTSTAYMELTSLRSDDTAVYYCARGFNGNYYGWGDDDAFDIWGQGTLVTVSS VL: QTVLTQPPSVSGAPGQRVTISCTGSNSNIGAGYDVHWYQQLPGTAPKLLIVGNSNRPSGVPDRFSGSKSGTSASLAITGLQAEDEADYYCQSYDSSLSGPNWVFGGGTKLTVL |  |  |  | ≥ 0.05 µg/mL and ≤ 0.1 µg/mL |

Where “and” joins values, the source holds several entries; their conditions need not be identical. Equal entries are not always repeated.
